Anti-infective test results gathered from many reports (values: NIAID ChemDB through PubChem).

All rows: growth or infection tests; organism: HIV-1; measure: fold resistance

Lines come from different laboratories, so protocols vary. An empty or dashed field is not shown. Fold resistance: result on the changed form divided by that on wild type.

SMILES | mutations | method | cell line | strain or isolate | value
CC(=O)COc1cc(NC(=S)OC(C)C)ccc1Cl | RT-T139I | cytopathic effect / XTT | CEM + CEM-SS | CALO(RT-T139I) | 3
COc1ccc(-n2c(SCC(=O)Nc3ccc(S(N)(=O)=O)cc3Cl)nnc2C(F)(F)F)c2ccccc12 | RT-Y188L | luciferase | HeLa + HeLa-JC53 | NL4-3 | 35
CC=CCOc1cc(NC(=S)c2ccoc2C)ccc1OC | RT-K101E | cytopathic effect / XTT | CEM + CEM-SS | NL4-3 | 20
COCCNC(=O)CSc1cnc(Nc2ccc(C#N)cc2)nc1Oc1c(C)cc(C#N)cc1C | Y181C | MTT | MT-4 | - | 5.1
Cc1cc(C)cc(Sc2c(C(C)C)c(=O)[nH]c(=S)n2COCCO)c1 | RT-Y188H | syncytia | CEM | IIIB | 233
CCc1c(C)[nH]c(=O)c(OC)c1Oc1cc(C)cc(C)c1 | RT-K103N | cytopathic effect / MTT | MT-4 | - | 32
O=C1Nc2ccc(F)c(F)c2[C@@](C#CC2CC2)(C(F)(F)F)N1 | RT-K103N V108I | - | - | - | 22.2
CCc1c(Sc2cc(C)cc(C)c2)n(COCc2ccccc2)c(=S)[nH]c1=O | RT-Y181I | syncytia | CEM | IIIB | 40
C=CCO/N=C/c1cc(NC(=S)c2ccoc2C)ccc1Cl | RT-L74V | cytopathic effect / XTT | CEM + CEM-SS | NL4-3 | 1.43
CC(C)=CCOc1cc(NC(=S)c2ccsc2C)ccc1Cl | RT-L100I | cytopathic effect / XTT | CEM + CEM-SS | NL4-3 (RT L100I) | 33.3
CCN1C(=O)c2c(O)c(=O)c(C(=O)NCc3ccc(F)c(Cl)c3F)cn2[C@H]2CCOC[C@H]21 | E92Q/N155H | luminescence | MT-2 | - | 2.3
CCc1c(C)[nH]c(=O)c(Cl)c1Oc1cc(C)cc(C)c1 | RT-Y181C | cytopathic effect / MTT | MT-4 | - | 16
Cc1occc1C(=S)Nc1ccc(Cl)c(/C=N/OC(C)(C)C)c1 | RT-K103N | cytopathic effect / XTT | CEM + CEM-SS | NL4-3 | 60
CCOCn1c(Sc2ccccc2)c(CC)c(=O)[nH]c1=O | RT-Y181I | syncytia | CEM | IIIB | 183
Cc1cc2c(C)cccc2c(-n2c(C)nnc2SCC(=O)Nc2ccccc2Br)c1C | RT-Y188L | luciferase | HeLa + HeLa-JC53 | NL4-3 | 200
Cc1cc(C#N)cc(C(=O)c2cc(Cl)ccc2OCC(=O)Nc2cnc(S(N)(=O)=O)cc2C)c1 | RT-K103N P225H | β-galactosidase | HeLa + HELA CD4+ | HXB2 | ~1
Cc1c(OCC2CCC2)c2cc(F)ccc2[nH]c1=O | RT-K103N Y181C | β-galactosidase | HeLa + HeLa-MAGI | NNRTI-resistant (RT K103N Y181C) | >3.28
Cc1ccc2c(C)cc(C)c(-n3c(SCC(=O)Nc4ccc(S(N)(=O)=O)cc4Cl)nnc3C(F)(F)F)c2n1 | RT-Y188L | luciferase | HeLa + HeLa-JC53 | NL4-3 | 4
CCCc1cc(=O)oc2c3c(c4c(c12)OC(C)(C)CC4)O[C@H](C)[C@@H](C)C3=O | RT-V108I | cytopathic effect / XTT | - | - | >68
COc1ccnc2[nH]cc(C(=O)C(=O)N3CCN(C(=O)c4ccccc4)C[C@H]3C)c12 | GP120-R350K M475I | RT activity | MT-2 | NL4-3 (gp120 R350K M475I) Recombinant | 15.3
CC(C)[C@H](NC(=O)OCc1ccccn1)C(=O)N[C@@H](Cc1ccccc1)[C@@H](O)C[C@H](Cc1ccccc1)NC(=O)OCc1cccnc1 | PR-L10R M46I L63P V82T I84V | p24 | MT-4 | NL4-3 | 3.75
Cc1ccc(-n2c(SCC(=O)Nc3ccc(S(N)(=O)=O)cc3Cl)nnc2C(F)(F)F)c2ccccc12 | RT-Y188L | luciferase | HeLa + HeLa-JC53 | NL4-3 | 62
O=C1Nc2ccc(Cl)cc2[C@@](C#CC2CC2)(C(F)(F)F)O1 | V179F/Y181C | - | MT-4 | - | 2
CCN1C(=O)c2c(O)c(=O)c(C(=O)NCc3c(F)cc(F)cc3F)cn2[C@H]2CCOC[C@H]21 | E138K/Q148K | luminescence | MT-2 | - | 5.9
Cc1occc1C(=S)Nc1ccc(Cl)c(C(=O)OC(C)C)c1 | RT-K101E | cytopathic effect / XTT | CEM + CEM-SS | NL4-3 | 23.3
Cc1cc(C#N)cc(C)c1Oc1nc(Nc2ccc(C#N)cc2)ncc1SCC(=O)Nc1ccc(S(C)(=O)=O)cc1 | Y181C | MTT | MT-4 | - | 14.4
CCN1c2ncc(CCOc3ccc(NC(=O)c4ccccc4C(=O)O)cc3C)cc2C(=O)N(C)c2cccnc21 | RT-K103N Y181C | p24 | C8166 | - | >1
CCOCn1c(Cc2ccccc2)c(C(C)C)c(=O)[nH]c1=O | RT-E138K | syncytia | CEM | IIIB | 30
Cc1cc(C#N)cc(C)c1Oc1nc(Nc2ccc(C#N)cc2)ncc1SCC(=O)NCCN1CCN(C(=O)OC(C)(C)C)CC1 | L100I | MTT | MT-4 | - | 2.2
CCc1c(C)[nH]c(=O)c(I)c1Oc1cc(C)cc(C)c1 | RT-L100I K103N | cytopathic effect / MTT | MT-4 | - | 16
Cc1cn([C@H]2C=C[C@@H](CO)O2)c(=O)[nH]c1=O | RT-M184V | p24 | MT-4 | XM-M184V | 1
C=Cc1c(Oc2cc(C)cc(C)c2)c(CC)c(C)[nH]c1=O | RT-K103N Y181C | cytopathic effect / MTT | MT-4 | - | 65
Cc1cc(-c2ccc[n+]([O-])c2)ccc1OCCc1cnc2c(c1)C(=O)N(C)c1cccnc1N2C1CC1 | RT-K103N Y181C | p24 | C8166 | - | >1
COc1cc2c(cc1Cc1cccc(Cl)c1F)c(=O)c(C(=O)O)cn2[C@H](CO)C(C)C | N222K | luminescence | MT-4 | NL4-3 | 1
Cc1ccc2ccc(C)c(-n3c(SCC(=O)Nc4ccc(S(N)(=O)=O)cc4Cl)nnc3C(F)(F)F)c2c1 | RT-Y188L | luciferase | HeLa + HeLa-JC53 | NL4-3 | 8.7
CCN1c2ncc(CCOc3ccc(C(=O)Nc4nc(CC(=O)O)cs4)cc3C)cc2C(=O)N(C)c2cccnc21 | RT-K103N Y181C | p24 | C8166 | - | >1
Cc1cc(C#N)cc(C(=O)c2cc(Cl)ccc2OCC(=O)Nc2ccc(S(N)(=O)=O)nc2C)c1 | RT-Y181C | β-galactosidase | HeLa + HELA CD4+ | HXB2 | ~1
Cc1occc1C(=S)Nc1ccc(Cl)c(C(=O)OCC2CC2)c1 | RT-V106A | cytopathic effect / XTT | CEM + CEM-SS | NL4-3 | 22
CCN1c2ncc(CCOc3ccc(-c4cccc(CC(=O)O)c4)cc3)cc2C(=O)N(C)c2cccnc21 | RT-K103N Y181C | p24 | C8166 | - | >1
C[C@@H]1CCO[C@H]2Cn3cc(C(=O)NCc4ccc(F)cc4F)c(=O)c(O)c3C(=O)N12 | L74M/V75I | luciferase / luminescence | TZM-bl | - | 0.5
CCN1C(=O)c2c(O)c(=O)c(C(=O)NCc3c(F)cc(F)cc3F)cn2[C@H]2COC[C@H]21 | N155H/Q148R | luminescence | MT-2 | - | 17.7
CCc1c(Sc2cc(C)cc(C)c2)n(COCc2ccccc2)c(=O)[nH]c1=O | RT-E138K | syncytia | CEM | IIIB | 9
CCN1c2ncc(CCOc3ccc(C(=O)N=c4ccn(O)cc4)cc3C)cc2C(=O)N(C)c2cccnc21 | RT-K103N Y181C | p24 | C8166 | - | 1
Cc1ccc2cccc(-n3c(SCC(=O)Nc4ccc(S(N)(=O)=O)cc4Cl)nnc3C(F)(F)F)c2n1 | RT-Y188L | luciferase | HeLa + HeLa-JC53 | NL4-3 | 37
C=CCNC(=O)CSc1cnc(Nc2ccc(C#N)cc2)nc1Oc1c(C)cc(C#N)cc1C | Y188L | MTT | MT-4 | - | 13.6
Cc1nnc(SCC(=O)Nc2ccc(S(N)(=O)=O)cc2Cl)n1-c1ccc(N(C)C)c2ccccc12 | RT-Y188L | luciferase | HeLa + HeLa-JC53 | NL4-3 | 176
Cc1cc(C#N)cc(C)c1Oc1nc(Nc2ccc(C#N)cc2)ncc1SCC(=O)NCCCN1CCOCC1 | F227L V106A | MTT | MT-4 | - | 40
Nc1nc(NC2CC2)c2ncn([C@H]3C=C[C@@H](CO)C3)c2n1 | RT-M41L D67N K70R T215Y K219Q | p24 | PBMC | XM-AZT-resistant | 1
O=C1Nc2ccc(Cl)cc2[C@@](/C=C/C2CC2)(C(F)(F)F)N1 | RT-P225H | - | - | - | <6
CCN1c2ncc(CCOc3ccc(S(=O)(=O)NCC(=O)O)cc3C)cc2C(=O)N(C)c2cccnc21 | RT-K103N Y181C | p24 | C8166 | - | 1
CCc1cc(C#N)cc(C(=O)c2cc(Cl)ccc2OCC(=O)Nc2ccc(S(N)(=O)=O)cc2C)c1 | RT-P225H | β-galactosidase | HeLa + HELA CD4+ | HXB2 | ~1
Cc1ccc(-n2c(C)nnc2SCC(=O)Nc2ccc(C)cc2Cl)cc1 | RT-K103N Y181C | luciferase | HeLa + HeLa-JC53 | NL4-3 | 189
CC(C)=CCOc1cc(NC(=S)c2ccoc2C)ccc1Cl | RT-V108I | cytopathic effect / XTT | CEM + CEM-SS | NL4-3 (RT V108I) | 1.67
CCc1c(C)[nH]c(=O)c(SC)c1Oc1cc(C)cc(C)c1 | RT-L100I | cytopathic effect / MTT | MT-4 | - | 10
CC(C)=CCOc1cc(NC(=S)c2ccoc2C)ccc1Cl | RT-D67N K70R T215Y K219Q | p24 | CEM + CEM-SS | 4xAZT(RT-D67N K70R T215Y K219Q) | 1
CCc1c(C)[nH]c(=O)c(C(F)(F)F)c1Oc1cc(C)cc(C)c1 | RT-Y188L | cytopathic effect / MTT | MT-4 | - | 64
C[C@@H]1CCO[C@H]2Cn3cc(C(=O)NCc4ccc(F)cc4F)c(=O)c(O)c3C(=O)N12 | NRTI/NNRTI resistant NLAY351753 | luminescence | MT-4 | NL4-3 | 1
Cc1cc(C)c2ccccc2c1-n1c(C)nnc1SCC(=O)Nc1ccccc1Br | RT-Y188L | luciferase | HeLa + HeLa-JC53 | NL4-3 | 89
Cc1cc(C#N)cc(C)c1Oc1nc(Nc2ccc(C#N)cc2)ncc1SCC(=O)NCCN1CCOCC1 | F227L V106A | MTT | MT-4 | - | 35.8
Cc1ccc(C2CC2)c(-c2ccc3c(c2C)CCCO3)c1[C@H](OC(C)(C)C)C(=O)O | PI-resistant ARP-4596 (L10R/M46I/L63P/V82T/I84V) | luminescence | MT-4 | NL4-3 | 1
C[C@H]1CO[C@@H]2Cn3cc(C(=O)NCc4ccc(F)cc4F)c(=O)c(O)c3C(=O)N12 | H51Y/R263K | RT activity | CBMC | NL4-3 | 1.8
Cc1cc(C#N)cc(C)c1Oc1nc(Nc2ccc(C#N)cc2)ncc1SCC(=O)NCC1CCCO1 | RES056 | MTT | MT-4 | - | 68.4
Cc1cc(S(N)(=O)=O)ccc1NC(=O)COc1ccc(Cl)cc1C(=O)c1cccc(C#N)n1 | RT-P225H | β-galactosidase | HeLa + HELA CD4+ | HXB2 | ~1
CCC(=O)c1ccc(F)c([C@@H]2C[C@@H]2NC(=O)Nc2ccc(C#N)cn2)c1O | NNRTI-resistant (RT V90I) | β-galactosidase / luminescence | TZM-bl | LAI | 1.4
Cc1cc(C#N)cc(C)c1Oc1nc(Nc2ccc(C#N)cc2)ncc1SCC(=O)NC1CC1 | F227L V106A | MTT | MT-4 | - | 44.2
CCCc1c(OC2CCCCC2)c2cc(Cl)ccc2[nH]c1=O | RT-K103N | β-galactosidase | HeLa + HeLa-MAGI | NNRTI-resistant (RT K103N) | >62.5
C#CCNC(=O)CSc1cnc(Nc2ccc(C#N)cc2)nc1Oc1c(C)cc(C#N)cc1C | RES056 | MTT | MT-4 | - | 113.6
O=C(O[C@@H]1[C@H](OC(=O)c2ccccc2)[C@@H](CO)O[C@H]1n1cnc2c(N(C(=O)c3ccccc3)C(=O)c3ccccc3)ncnc21)c1ccccc1 | N155H | β-galactosidase | HeLaP4 | NL4-3 | 1.04

6 of the rows above, restated:

| SMILES | mutations | method | cell line | strain or isolate | value |
|---|---|---|---|---|---|
| Cc1ccc2ccc(C)c(-n3c(SCC(=O)Nc4ccc(S(N)(=O)=O)cc4Cl)nnc3C(F)(F)F)c2c1 | RT-Y188L | luciferase | HeLa + HeLa-JC53 | NL4-3 | 8.7 |
| Cc1ccc(C2CC2)c(-c2ccc3c(c2C)CCCO3)c1[C@H](OC(C)(C)C)C(=O)O | PI-resistant ARP-4596 (L10R/M46I/L63P/V82T/I84V) | luminescence | MT-4 | NL4-3 | 1 |
| CC(C)=CCOc1cc(NC(=S)c2ccoc2C)ccc1Cl | RT-D67N K70R T215Y K219Q | p24 | CEM + CEM-SS | 4xAZT(RT-D67N K70R T215Y K219Q) | 1 |
| O=C1Nc2ccc(Cl)cc2[C@@](/C=C/C2CC2)(C(F)(F)F)N1 | RT-P225H | - | - | - | <6 |
| CC(=O)COc1cc(NC(=S)OC(C)C)ccc1Cl | RT-T139I | cytopathic effect / XTT | CEM + CEM-SS | CALO(RT-T139I) | 3 |
| Cc1occc1C(=S)Nc1ccc(Cl)c(C(=O)OC(C)C)c1 | RT-K101E | cytopathic effect / XTT | CEM + CEM-SS | NL4-3 | 23.3 |